Anti-infective test results gathered from many reports (values: NIAID ChemDB through PubChem).

Common to all: growth or infection tests; organism: Mycobacterium tuberculosis

ECn is the concentration giving n% inhibition of infection, replication or growth. Two numbers with a dash give a range or band. A number after MIC or MFC names an inhibition level or a share of isolates. Percent inhibition refers to the dose given; in toxicity tests it is the harm to the cells. An empty or dashed field is not shown. Lines come from different laboratories, so protocols vary. MIC bound comes from a single tested concentration.

compound	method	strain or isolate	read-out	dose	cells	changes	result
Cc1nc2ccc(N(C)C)cc2c2c1Cc1c(C)nc3ccc(N(C)C)cc3c1O2	BACTEC	H37Rv	inhibition	12.5 µg/mL			-35%
Cc1nc(-c2ccoc2)c2ccn([C@@H]3O[C@H](CO)C(O)C3O)c2n1	MTT	My 331/88	MIC				>250 µM
Cc1c(CN2CCN(C)CC2)cc(-c2ccc(Cl)cc2)n1Cc1ccccc1		103471	MIC				4 µg/mL
O=C(O)C1(O)C[C@@H](O)C(O)[C@H](O)C1	BACTEC	H37Rv	MIC bound				>12.5 µg/mL
CC(C)c1ccc(NC(=O)c2cc(Cl)ccc2N)cc1		My 331/88	MIC				31 µM
CCCCCCCCCCCCCCCCOCCCCOP(=O)(O)C[C@@H]1O[C@H](CO)[C@@H](O)[C@@H]1O		H37Rv	EC50				<6.25 µg/mL
OC[C@H]1O[C@@H](n2ccc3c(-c4ccccc4)nc(F)nc32)C(O)C1O	MTT	My 331/88	MIC				>250 µM
C=C1C(=O)[C@@]23C(CC[C@@H]1[C@H]2O)C1(COC(C)=O)C(O)CCC(C)(C)C1C[C@H]3O	BACTEC	H37Rv	MIC				≥12.5 µg/mL
Cc1ccc(-c2cc(CN3CCOCC3)c(C)n2-c2ccc(F)cc2)cc1		H37Rv DR7	MIC			Q40R	0.68 µM
CCOc1cc(/C=C2\CC/C(=C\c3ccc(OCCCN4CCC(C)CC4)c(OCC)c3)C2=O)ccc1OCCCN1CCC(C)CC1	visual reading	H37Rv	MIC99				6.25 µM
C[C@@H](O)[C@H]1C(=O)N2C(C(=O)O)=C(SC3CN(C4=NCCS4)C3)S[C@H]12	broth dilution		MIC				16–32 µg/mL
Oc1cc(O)c2c(c1)OC(c1ccc(O)c(O)c1)C(O)C2O	resazurin	H37Rv	inhibition	6.25 µg/mL			-2%
CO[C@H]1/C=C/O[C@@]2(C)Oc3c(C)c(O)c4c(O)c(c(/C=N/N5CCN(C)CC5)c(O)c4c3C2=O)NC(=O)/C(C)=C\C=C\[C@H](C)[C@H](O)[C@@H](C)[C@@H](O)[C@@H](C)[C@H](OC(C)=O)[C@@H]1C		22 strains	MIC50				0.1 µg/mL
Cc1ccc(-n2nnc3ccccc3c2=O)cc1		My 331/88	MIC				>500 µM
OC[C@H]1O[C@@H](n2ccc3c(-c4ccoc4)nc(F)nc32)C(O)C1O	MTT	My 331/88	MIC				>250 µM
CCCCCCCCCCCCCCCCCCCCS(=O)(=O)C[C@@H]1O[C@H](CO)[C@@H](O)[C@@H]1O		H37Rv	EC50				>6.25 µg/mL
Cc1ccc(NC(=O)c2cc(Cl)ccc2N)cc1		My 331/88	MIC				125 µM
CCCCc1cc(C(=O)NN)c2ccccc2n1	BACTEC	H37Rv	MIC bound				>12.5 µg/mL
CO[C@H]1/C=C/O[C@@]2(C)Oc3c(C)c(O)c4c(=O)c(c5oc6cc(N7CCN(CC(C)C)CC7)cc(=O)c6nc5c4c3=C2O)NC(=O)/C(C)=C\C=C\[C@H](C)[C@H](O)[C@@H](C)[C@@H](O)[C@@H](C)[C@H](OC(C)=O)[C@@H]1C		22 strains (rifampicin-susceptible)	MIC50				≤0.05 µg/mL
CN1CCN(Cc2ccc(NC/C=C/c3ccccc3)cc2)CC1		103471	MIC				>64 µg/mL
CC(=O)OCC1OC(OC2=C(CC=C(C)C)C(=O)c3ccccc3C2=O)C(OC(C)=O)C(OC(C)=O)C1OC(C)=O	BACTEC	H37Rv	inhibition	128 µg/mL			99%
C[C@@H](O)[C@H]1C(=O)N2C(C(=O)O)=C(S[C@@H]3CN[C@H](CNS(N)(=O)=O)C3)S[C@H]12			MIC				0.5–1 µg/mL
COc1cc(/C=C2\CC/C(=C\c3ccc(OCCCN4CCCCCC4)c(OC)c3)C2=O)ccc1OCCCN1CCCCCC1	visual reading	H37Rv	MIC99				12.5 µM
FC(F)(F)c1ccc2c3c(c4c(c2n1)OCN(Cc1ccc(Cl)cc1Cl)C4)CN(Cc1ccc(Cl)cc1Cl)CO3		H37Rv	inhibition	6.25 µg/mL			12%
CN1N=C(c2ccncc2)OC1c1cccc(F)c1		6 PI	MIC				>20 µg/mL
Cc1ccc(-c2cc(CN3CCOCC3)c(C)n2-c2ccc(Cl)cc2)cc1		H37Rv	MIC90				42.45 µM
CN1N=C(c2ccncc2)OC1c1ccc(C(F)(F)F)cc1		H37Rv	MIC				>20 µg/mL
O=C(CN1CCN(CC(=O)c2ccc(Cl)cc2)CC1)c1ccc(Cl)cc1	BACTEC	H37Rv	MIC bound				>12.8 µg/mL
Cc1ccc(-n2cc(CS(=O)(=O)C3c4ccccc4-c4ccccc43)nn2)cc1C	broth dilution	Specimen 192	MIC99				120 µM
C(/C=C/c1ccccc1)=Nc1ccc(Cn2ccnc2)cc1		B814	MIC				32 µg/mL
CCCCCCCCCCCCCCCCP(=O)([O-])C[C@@H]1O[C@H](CO)[C@@H](O)[C@@H]1O		H37Rv	EC50				>6.25 µg/mL
CN1N=C(c2ccncc2)OC1c1ccccc1		16PI	MIC				>20 µg/mL
CC1SC2(C(=O)N(CN3CCCCC3)c3ccccc32)N(c2ccccc2)C1=O	BACTEC	H37Rv	MIC bound				>12.8 µg/mL
Cc1[nH]c(-c2ccc(Cl)cc2)cc1CN1CCOCC1		103471	MIC				>64 µg/mL
CCCN1CN(C(C(=O)NC2C(=O)N3C2SC(C)(C)C3C(=O)O)c2ccc(O)cc2)CSC1=S	BACTEC	H37Rv	MIC bound				>12.5 µg/mL
Nc1nc(-c2ccoc2)c2ccn([C@@H]3O[C@H](CO)C(O)C3O)c2n1	MTT	My 331/88	MIC				>250 µM
Cc1ccc(Nc2cccc3c2C(=O)c2cccc(Nc4ccc(C)c(S(=O)(=O)O)c4)c2C3=O)cc1S(=O)(=O)O	BACTEC	H37Rv	MIC bound				>6.25 µg/mL
COc1cnccc1C(=O)NNC(=O)/C=C/c1ccc(O)cc1	resazurin	H37Rv	MIC				29.2 µM
C[C@H]1c2ccoc2C[C@H]2[C@H]1[C@@H](O)[C@@H](OC(=O)/C=C/c1ccccc1)[C@@]1(O)C(C)(C)CCC[C@]21C		H37Ra	MIC				6.25 µg/mL
CN1N=C(c2ccncc2)OC1c1ccc(F)cc1		H37Rv	MIC				>20 µg/mL
CCOc1cc(/C=C2\CC/C(=C\c3ccc(OCCCN4CCCCC4C)c(OCC)c3)C2=O)ccc1OCCCN1CCCCC1C	visual reading	H37Rv	MIC99				12.5 µM
Fc1ccc(-n2cc(CSC3c4ccccc4-c4ccccc43)nn2)cc1Cl	broth dilution	H37Rv	MIC99				246 µM
C(=C\c1ccccc1)/CNc1cccc(Cn2ccnc2)c1		B814	MIC				4 µg/mL
CCN(CC)CC(O)CNc1ccc(NCC2CO2)c2c1C(=O)c1ccccc1C2=O		H37Rv	MIC		VERO		1.56 µg/mL
O=[N+]([O-])c1ccc(-n2cc(CS(=O)(=O)C3c4ccccc4-c4ccccc43)nn2)cc1	broth dilution	H37Rv	MIC99				>231 µM
CC(C)(C)c1ccc(CNc2ccc(N3CCOCC3)cc2)cc1		103471	MIC				4 µg/mL
CN1N=C(c2ccncc2)OC1c1ccc(Cl)cc1		H37Rv	MIC				>20 µg/mL
COC(=O)CSC1=C(C(=O)O)N2C(=O)[C@H]([C@@H](C)O)[C@H]2[C@H]1C	broth dilution		MIC				1–2 µg/mL
CCc1ccc(-n2cc(CNC3c4ccccc4-c4ccccc43)nn2)cc1	broth dilution	Specimen 192	MIC99				136 µM
CO[C@@]12[C@H](COC(N)=O)C3=C(C(=O)C(C)=C(N)C3=O)N1C[C@H]1[C@@H]2N1C(=O)C1N2C(=O)[C@@H](NC(=O)Cc3ccccc3)[C@H]2SC1(C)C		CS-R	MIC				<0.1 µg/mL
CN1N=C(c2ccncc2)OC1c1cccc(Cl)c1		H37Rv	MIC				5 µg/mL
O=C(/C=C/c1cccc(Cl)c1)NNC(=O)c1ccncc1	resazurin	H37Rv	MIC				83 µM
C=CCN(CC=C)CCN1CCN(CCCN2c3ccccc3Sc3ccc(C(F)(F)F)cc32)CC1.Cl.Cl.Cl	BACTEC	H37Rv	inhibition	12.5 µg/mL			100%
O=C(/C=C/c1ccc(O)c(O)c1)NNC(=O)c1ccncc1O	resazurin	H37Rv	MIC				18.5 µM
Nc1ccc(Cl)cc1C(=O)Nc1ccc(Br)cc1		My 331/88	MIC				31 µM
CCc1ccc(-c2cc(CN3CCOCC3)c(C)n2-c2ccc(F)cc2)cc1		H37Rv DR3	MIC			V681I S87P	0.66 µM
COC(=O)[C@@]12Oc3ccc(-c4ccc5c(c4O)C(O)=C4C(=O)C[C@H](C)[C@@H](O)[C@]4(C(=O)OC)O5)c(O)c3C(O)=C1C(=O)C[C@H](C)[C@H]2O	BACTEC	H37Rv	MIC bound				>12.8 µg/mL
CCCCCCCCP(=O)([O-])C[C@@H]1O[C@H](CO)[C@@H](O)[C@@H]1O		H37Rv	inhibition	6.25 µg/mL			0%
CC(C)(C)c1ccc(CNc2ccc(N3CCSCC3)cc2)cc1		103471	MIC				2 µg/mL
COc1cc(/C=C2\CC/C(=C\c3ccc(OCCCCN4CCCC4)c(OC)c3)C2=O)ccc1OCCCCN1CCCC1	visual reading	H37Rv	MIC99				12.5–25 µM
CN(C)CCn1c(=O)c2ccc(NCCNCCO)c3c(=O)c4ccccc4n(c1=O)c23.Cl	resazurin	H37Rv	MIC bound				>6.25 µg/mL
Nc1nc(-c2ccco2)c2ccn([C@@H]3O[C@H](CO)C(O)C3O)c2n1	MTT	My 331/88	MIC				>250 µM
CCCCCCCCCCCCc1ccc(NC(=O)C2=CCN(C)[C@@H]([C@H](O[C@@H]3O[C@H](CN)[C@@H](O)[C@H]3O)[C@H]3O[C@@H](n4ccc(=O)[nH]c4=O)[C@H](O)[C@@H]3O)C(=O)N2C)cc1		Kurono	MIC				3.13 µg/mL
O=C(CCCCCCCCC(=O)NN1C(=O)/C(=C\c2ccc(O)c(O)c2)SC1c1c(O)ccc2ccccc12)NN1C(=O)/C(=C\c2ccc(O)c(O)c2)SC1c1c(O)ccc2ccccc12	resazurin	H37Rv	inhibition	6.25 µg/mL			9%
Cc1c(CN2CCOCC2)cc(-c2ccc(C(C)C)cc2)n1-c1ccc(F)cc1		H37Rv	MIC90				28.73 µM
FC(F)(F)c1ccccc1NC(=S)SCc1ccc2c(c1)OCO2	BACTEC	H37Rv	MIC bound				≤128 µg/mL
C[C@@H](O)[C@H]1C(=O)N2C(C(=O)O)=C(S[C@@H]3CN[C@H](C(=O)N(C)C)C3)S[C@H]12	broth dilution		MIC				8–16 µg/mL
CO[C@@H]1[C@@H](OC(=O)c2ccc(C)[nH]2)[C@@H](O)C(Oc2ccc3c(O)c(NC(=O)c4c[nH]c(C(=O)Nc5c(O)c6ccc(OC7OC(C)(C)[C@H](OC)[C@@H](OC(=O)c8ccc(C)[nH]8)[C@H]7O)c(C)c6oc5=O)c4C)c(=O)oc3c2C)OC1(C)C		PAS-R	MIC				3.2 µg/mL
CCCCCCCCCS(=O)(=O)C[C@@H]1O[C@H](CO)[C@@H](O)[C@@H]1O		H37Rv	EC50				>6.25 µg/mL
Nc1ccc(Cl)cc1C(=O)Nc1ccc(Cl)c(Cl)c1		My 331/88	MIC				32 µM
CC1Nc2c(ccc3ncccc23)C(=O)N1Nc1ccccc1	BACTEC	H37Rv	inhibition	12.5 µg/mL			-8%
c1ccc(C2=NCCN2)c(NCc2cccc3ccccc23)c1		103471	MIC				2 µg/mL
CN1CCN(Cc2ccccc2NC/C=C/c2ccccc2)CC1		6431	MIC				32 µg/mL
NNC(=O)c1ccncc1		H37Ra	MIC				0.04–0.09 µg/mL
O=C(/C=C/c1cc(F)cc(F)c1)NNC(=O)c1ccncc1	resazurin	H37Rv	MIC				55.8 µM
C[C@@H]1CN(c2c(F)c(N)c3c(=O)c(C(=O)O)cn(C4CC4)c3c2F)C[C@H](C)N1		22 strains (rifampicin-susceptible)	MIC50				0.2 µg/mL
COc1ccc(C2OC(c3ccncc3)=NN2C)cc1F		H37Rv	MIC				>20 µg/mL